Values from PubChem BioAssay AID624099 (ICCB-Longwood, 2012).

Assay: 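Knock-downs relieving repression by E2 of an HPV18 LCR luciferase reporter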 (primary screen)
System: human C33A cervical carcinoma cells (HPV-negative) stably expressing BPV1 E2 and an HPV18 LCR luciferase reporter
Reagent: siRNA pool against human genes, 40 nM
Timing: 72 h
Detection: 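HPV18 LCR reporter light per well, converted to plate-wise z-scores that exclude control wells, and averaged over triplicate plates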
Scale: mean z-score and z-score: higher = stronger reporter signal, weaker E2 silencing
Call rule: 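Mean z ≥ 2 together with z ≥ 2 in two or more of the three replicates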
In all, the deposit lists about 21,000 reagents; below is an unselected part. 497 of all reagents (2.4%) were called active. 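Higher z means weaker E2 silencing; only reporter increases were scored, and knock-downs that hurt cell survival may mask genuine repressor factors.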 Unmarked entries are inactive. Reagent sequences are not shown.

| Gene | PubChem SID | mean z-score | z-score, replicate A | z-score, replicate B | z-score, replicate C |
| --- | --- | --- | --- | --- | --- |
| LINC00575 | SID134329255 | 1.97 | 1.79 | 2.15 | 1.98 |
| LOC401396 (retired record) | SID134327803 | 0.23 | 0.46 | 0.17 | 0.05 |
| LOC401396 (retired record) | SID134327892 | 0.14 | 0.13 | -0.06 | 0.34 |
| SOWAHC | SID134318413 | 1.55 | 1.66 | 1.75 | 1.23 |
| CNN1 | SID134319870 | 0.09 | 0.41 | -0.45 | 0.33 |
| FNDC3A | SID134329683 | -0.92 | -0.43 | -0.96 | -1.37 |
| ADGRE4P | SID134328969 | 0.38 | 0.05 | 0.58 | 0.52 |
| LOC388681 (retired record) | SID134327003 | -0.26 | -0.46 | -0.32 | 0 |
| SRSF4 | SID134310772 | 0.26 | 0.22 | 0.26 | 0.29 |
| LOC389089 (retired record) | SID134327148 | -0.67 | -0.69 | -0.87 | -0.44 |
| TP53TG5 | SID134323955 | 0.74 | 0.43 | 0.81 | 1 |
| LOC400880 (retired record) | SID134329076 | -0.66 | -0.82 | -0.52 | -0.64 |
| CD34 | SID134323287 | 1.65 | 1.69 | 1.51 | 1.74 |
| SPEM2 | SID134321916 | 0.3 | 0.48 | 0.33 | 0.09 |
| ZNF222 | SID134324047 | 1.49 | 1.41 | 1.72 | 1.33 |
| HLA-C | SID134321446 | -0.2 | 0 | -0.51 | -0.09 |
| LINC01597 | SID134329628 | 0.29 | 0.16 | 0.16 | 0.54 |
| MTA3 | SID134325475 | -0.74 | -0.56 | -0.73 | -0.93 |
| LRRC9 | SID134326835 | -0.86 | -1.14 | -0.94 | -0.5 |
| PROCA1 | SID134320415 | -0.39 | -0.44 | -0.64 | -0.08 |
| MYO5C | SID134329442 | 0.04 | 0.09 | 0.17 | -0.13 |
| ZFAND6 | SID134314213 | 1.78 | 1.83 | 1.74 | 1.78 |
| BCL10 | SID134310420 | 2.21 (active) | 2.24 | 2.22 | 2.17 |
| ZNF280B | SID134312259 | 1.17 | 0.8 | 1.35 | 1.35 |
| LINC00200 | SID134328187 | -0.74 | -0.61 | -0.73 | -0.88 |
| MAGEC3 | SID134321175 | 1.31 | 1.35 | 1.15 | 1.43 |
| ZBTB7C | SID134325692 | -1.32 | -1.29 | -1.45 | -1.23 |
| OR2A2 | SID134329924 | -1.73 | -1.95 | -2.03 | -1.21 |
| LOC401085 (retired record) | SID134327359 | -0.35 | -0.12 | -0.3 | -0.64 |
| TJP1 | SID134312717 | 0.06 | -0.05 | 0.14 | 0.11 |
| KDM6B | SID134325578 | -0.4 | -0.13 | -0.6 | -0.47 |
| C11orf86 | SID134326606 | 0.07 | -0.1 | 0.18 | 0.15 |
| KRTAP5-9 | SID134323756 | 2.13 (active) | 2.08 | 2.33 | 1.98 |
| GTF3C5 | SID134323778 | 0.3 | 0.17 | 0.28 | 0.44 |
| VAMP1 | SID134316764 | 0.1 | 0.2 | 0.01 | 0.1 |
| CCL17 | SID134312768 | -3.04 | -3.13 | -3.01 | -2.98 |
| GTPBP3 | SID134319023 | -0.36 | -0.6 | -0.44 | -0.05 |
| XCL2 | SID134312834 | 1.83 | 1.78 | 1.73 | 1.97 |
| MFNG | SID134315677 | -0.71 | -0.43 | -1.04 | -0.66 |
| FCN3 | SID134312836 | -0.37 | -0.46 | -0.14 | -0.51 |
| PUM1 | SID134318355 | -2.01 | -2.09 | -2.01 | -1.93 |

Continued, starting with the last 4 of the part before.
| Gene | PubChem SID | mean z-score | z-score, replicate A | z-score, replicate B | z-score, replicate C |
| --- | --- | --- | --- | --- | --- |
| XCL2 | SID134312834 | 1.83 | 1.78 | 1.73 | 1.97 |
| MFNG | SID134315677 | -0.71 | -0.43 | -1.04 | -0.66 |
| FCN3 | SID134312836 | -0.37 | -0.46 | -0.14 | -0.51 |
| PUM1 | SID134318355 | -2.01 | -2.09 | -2.01 | -1.93 |
| PCMTD2 | SID134324745 | -0.37 | -0.8 | -0.51 | 0.19 |
| EIF3M | SID134320220 | -2.44 | -2.36 | -2.43 | -2.53 |
| MCM10 | SID134323001 | 0.75 | 0.65 | 0.84 | 0.76 |
| TM9SF3 | SID134314823 | 0.48 | 0.5 | 0.48 | 0.46 |
| ABCC8 | SID134311919 | -1.41 | -1.32 | -1.62 | -1.3 |
| SEZ6 | SID134313010 | -1.21 | -1.39 | -1.27 | -0.98 |
| ZBTB33 | SID134323732 | -0.02 | 0.46 | -0.43 | -0.1 |
| SLC39A14 | SID134312615 | -0.47 | -0.41 | -0.49 | -0.5 |
| LILRP2 | SID134318495 | -0.8 | -0.71 | -0.93 | -0.76 |
| TPT1 | SID134310521 | 0.34 | 0.55 | 0.19 | 0.26 |
| SPACA7 | SID134319930 | -0.72 | -0.77 | -0.43 | -0.96 |
| RITA1 | SID134319087 | -0.2 | -0.19 | -0.14 | -0.27 |
| ASIC2 | SID134311524 | -1.62 | -1.54 | -1.78 | -1.53 |
| DDX27 | SID134317852 | -0.95 | -0.74 | -0.96 | -1.16 |
| NXT2 | SID134320903 | -1.14 | -0.72 | -1.28 | -1.42 |
| MRPL16 | SID134317583 | -0.59 | -0.79 | -0.11 | -0.87 |
| STAP1 | SID134316684 | -0.85 | -0.63 | -0.87 | -1.07 |
| PGAM1 | SID134313731 | -0.67 | -0.91 | -0.83 | -0.26 |
| PGAM1 | SID134326676 | -0.84 | -0.55 | -0.95 | -1.02 |
| P2RY1 | SID134311128 | -0.02 | -0.25 | 0.12 | 0.07 |
| NSUN5 | SID134324937 | 2.41 (active) | 2.12 | 2.46 | 2.64 |
| LOC343153 (retired record) | SID134325203 | -2.07 | -2.25 | -2.19 | -1.77 |
| LOC392533 (retired record) | SID134329201 | -2 | -2.09 | -2.43 | -1.47 |
| TNFRSF11B | SID134313021 | 0.17 | 0.22 | 0.04 | 0.25 |
| TP53AIP1 | SID134318095 | -0.04 | -0.25 | 0.12 | 0 |
| VSIG8 | SID134327116 | -1.19 | -0.79 | -1.21 | -1.59 |
| LOC401098 (retired record) | SID134327388 | -1.98 | -1.7 | -2.19 | -2.04 |
| ZBTB48 | SID134313794 | 0.94 | 1.03 | 0.9 | 0.88 |
| CES4A | SID134313776 | 0.15 | 0.13 | 0.18 | 0.15 |
| PNMA1 | SID134316982 | -0.53 | -0.93 | -0.23 | -0.44 |
| NBPF10 | SID134327121 | -0.08 | 0 | -0.15 | -0.07 |
| POLQ | SID134319231 | -0.19 | -0.15 | -0.17 | -0.25 |
